Sequences of proteins named here, by UniProt entry; tags and fusion partners are left off.
UniProt Q05941, whole entry, looked up: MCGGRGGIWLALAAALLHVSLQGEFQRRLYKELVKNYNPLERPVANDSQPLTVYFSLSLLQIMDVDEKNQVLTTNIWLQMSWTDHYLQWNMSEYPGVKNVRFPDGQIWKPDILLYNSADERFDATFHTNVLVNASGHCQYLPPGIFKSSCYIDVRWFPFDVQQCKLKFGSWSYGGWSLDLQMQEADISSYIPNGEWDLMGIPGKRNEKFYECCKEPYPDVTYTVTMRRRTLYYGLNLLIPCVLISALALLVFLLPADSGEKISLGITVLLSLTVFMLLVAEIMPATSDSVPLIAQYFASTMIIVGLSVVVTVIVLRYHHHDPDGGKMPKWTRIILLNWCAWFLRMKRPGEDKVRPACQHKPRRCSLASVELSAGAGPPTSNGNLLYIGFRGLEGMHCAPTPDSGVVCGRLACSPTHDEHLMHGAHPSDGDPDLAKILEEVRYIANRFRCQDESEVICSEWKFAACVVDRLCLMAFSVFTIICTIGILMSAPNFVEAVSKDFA

According to ChEMBL document CHEMBL1135438, “Synthesis and pharmacological characterization of novel analogues of the nicotinic acetylcholine receptor agonist (+/-)-UB-165” (J Med Chem, 2002):

Assays:
[1] = molecular target: Neuronal acetylcholine receptor subunit alpha-7 (Rattus norvegicus) (UniProt Q05941); test: Compound was tested for its potency at Nicotinic acetylcholine receptor alpha-7 relative to that of Nicotinic acetylcholine receptor alpha4-beta2
[2] = Compound was tested for its potency at Nicotinic acetylcholine receptor alpha3-beta4 relative to that of Nicotinic acetylcholine receptor alpha4-beta2
[3] = Ratio of Ki (binding affinity) relative to activation potency

## CC(=O)C1=CCCC2CCC1N2 (stereo not drawn)
[1]
  Affinity ratio: 1470
[2]
  Affinity ratio: 20.3
[3]
  Ratio: 90
